In US20200262877A1, “ION CHANNEL-BINDING PEPTIDES AND METHODS OF USE THEREOF” (priority 2017, published 2020) one finds % activity data, which are given here for 14 molecules.

Among the targets are α3β4 nicotinic receptor; NR2B; GABA; NR2A; Kv1.2; TRPV1; Cav2.2; α4β2 nicotinic receptor; Cav2.1; TRPA1; Kir2.1; Kv1.3; Kv1.1; 5HT3a; Kv2.1.
Holding throughout (experiment): cell-based or functional assay
For a further assay, the target named is T1, hERG, Q12809.
T1 chain: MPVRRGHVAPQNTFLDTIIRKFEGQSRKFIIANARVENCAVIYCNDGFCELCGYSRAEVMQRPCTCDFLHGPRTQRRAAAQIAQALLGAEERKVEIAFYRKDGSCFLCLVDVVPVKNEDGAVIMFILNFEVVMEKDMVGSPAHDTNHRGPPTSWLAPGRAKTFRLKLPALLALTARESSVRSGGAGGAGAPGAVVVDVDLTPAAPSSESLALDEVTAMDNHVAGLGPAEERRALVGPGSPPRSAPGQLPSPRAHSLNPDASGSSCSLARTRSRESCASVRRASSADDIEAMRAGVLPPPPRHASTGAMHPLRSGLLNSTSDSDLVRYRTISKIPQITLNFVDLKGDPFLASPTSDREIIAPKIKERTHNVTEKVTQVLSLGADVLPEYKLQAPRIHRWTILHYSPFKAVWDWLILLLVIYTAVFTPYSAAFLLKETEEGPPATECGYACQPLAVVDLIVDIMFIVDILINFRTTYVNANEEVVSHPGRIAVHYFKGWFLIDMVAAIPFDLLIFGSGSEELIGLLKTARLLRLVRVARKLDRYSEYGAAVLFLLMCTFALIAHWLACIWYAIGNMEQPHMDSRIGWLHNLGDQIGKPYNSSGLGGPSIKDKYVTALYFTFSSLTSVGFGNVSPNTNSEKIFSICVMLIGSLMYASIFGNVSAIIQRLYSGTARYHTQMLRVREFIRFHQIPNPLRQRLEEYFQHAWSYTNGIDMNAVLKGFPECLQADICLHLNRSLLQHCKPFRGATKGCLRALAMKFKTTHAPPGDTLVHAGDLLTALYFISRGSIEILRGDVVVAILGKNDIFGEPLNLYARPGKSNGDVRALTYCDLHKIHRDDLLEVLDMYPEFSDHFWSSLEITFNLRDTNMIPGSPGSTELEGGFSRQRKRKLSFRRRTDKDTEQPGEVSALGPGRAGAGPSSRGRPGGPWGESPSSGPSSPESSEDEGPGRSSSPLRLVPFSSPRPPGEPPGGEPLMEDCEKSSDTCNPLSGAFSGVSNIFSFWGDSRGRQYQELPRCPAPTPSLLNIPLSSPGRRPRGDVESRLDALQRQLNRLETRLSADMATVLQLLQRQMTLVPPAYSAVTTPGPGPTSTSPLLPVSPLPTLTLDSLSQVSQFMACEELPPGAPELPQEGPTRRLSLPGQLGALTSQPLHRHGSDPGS

GSGVPINVRCRGSRDCLDPCRRAGMRFGRCINSRCHCTP (modifications not checked) [SEQ ID NO: 33]: the figures for the % activity at 20 µM in the assay with α3β4 nicotinic receptor and with NR2B were 90% and 70%, respectively.

B1: SEQ ID NO: 36 (peptide)
peptide: GSAQEPVKGPVSTKPGSCPIILIRCAMLNPPNRCLKDTDCPGIKKCCEGSCGMACFVPQ
modifications: not checked
B1: the % activity at 20 µM with α3β4 nicotinic receptor came to 87%; with Kv1.2, 87%; with TRPV1 it was 69%; in the assay with Cav2.2, 87%; with α4β2 nicotinic receptor it was 57%. In addition, the % activity at 0.2 µM is 118% in the assay with GABA, 115% with NR2A, 114% with Cav2.2 and 62% with α4β2 nicotinic receptor.

Turning to GSQFTDVKCTGSKQCWPVCKQMFGKPNGKCMNGKCRCYS (modifications not checked) [SEQ ID NO: 19], the % activity at 0.2 µM with Cav2.1 came out at 106%; with GABA it was 93%; in the assay with TRPA1, 126%; with NR2B, 117%; in the assay with NR2A, 90%; with Kv1.2, 41%. Moreover, the % activity at 0.2 µM in the assay with Kv1.3 came to 4%; with Kv1.1, 100%. For the same molecule, the % activity at 20 µM with Cav2.1 is 109%; with TRPA1, 109%; with NR2B, 130%; with Kv1.2 it was 37%; with Kir2.1, 93%; with Kv1.3, -1%. Besides, the % activity at 20 µM amounted to 44% in the assay with Kv1.1, 69% in the assay with 5HT3a, 90% with TRPV1 and 93% in the assay with α4β2 nicotinic receptor.

Consider GGYSRCQLQGFNCVVRSYGLPTIPCCRGLTCRSYFPGSTYGRCQRY (modifications not checked) [SEQ ID NO: 34], for which the % activity at 20 µM with GABA stood at 117%; in the assay with NR2B, 66%; with Kv1.2 it was 51%; with Kir2.1, 50%; with hERG, Q12809, 66%; with TRPV1, 71%. The % activity at 20 µM with α4β2 nicotinic receptor was determined as 51%. Besides, the % activity at 0.2 µM with 5HT3a was determined as 114%; in the assay with Cav2.2, 130%.

For GSACLAEYQKCEGSTVPCCPGLSCSAGRFRKTKLCTK (modifications not checked) [SEQ ID NO: 25], in the assay with TRPA1, the % activity at 0.2 µM stood at 124% and the % activity at 20 µM worked out at 129%.

Consider GSDRDSCIDKSRCSKYGYYQECQDCCKKAGHNGGTCMFFKCKCA (modifications not checked) [SEQ ID NO: 14], for which the % activity at 20 µM in the assay with GABA is 120%; in the assay with TRPA1 it was 66%; with Kv1.2, 34%; with hERG, Q12809, 1%. Moreover, the % activity at 0.2 µM with NR2B was found to be 123%; with TRPV1 it was 133%; in the assay with Cav2.2 it was 129%.

In the case of GSAEIIRCSGTRECYAPCQKLTGCLNAKCMNKACKCYGCV (modifications not checked) [SEQ ID NO: 21], the % activity at 0.2 µM amounted to 119% with TRPA1, 113% in the assay with NR2B, 52% in the assay with Kv1.2 and 65% with Kv1.3. For the same molecule, the % activity at 20 µM was determined as 36% with Kv1.2; 72% with hERG, Q12809; 5% with Kv1.3; 85% in the assay with α4β2 nicotinic receptor.

In the case of GSSEKDCIKHLQRCRENKDCCSKKCSRRGTNPEKRCR (modifications not checked) [SEQ ID NO: 3], the % activity at 20 µM turned out to be 92% with α3β4 nicotinic receptor; 74% with NR2B; 100% with NR2A; 45% with Kv1.2; 87% with Kv1.3; 73% with Kv1.1. Besides, in the assay with TRPV1, the % activity at 20 µM turned out to be 95%. The % activity at 0.2 µM with hERG, Q12809 is 121%; with Kv1.3 it was 92%; with Kv2.1 it was 80%.

Turning to GSQVSTNKKCSNTSQCYKTCEKVVGVAAGKCMNGKCICYP (modifications not checked) [SEQ ID NO: 30], the % activity at 0.2 µM with Cav2.1 worked out at 111%; with GABA it was 102%; with TRPA1, 118%; with NR2B, 92%; with NR2A it was 111%; with Kv1.2, 110%. Further, the % activity at 0.2 µM worked out at 102% with Kir2.1; 89% with Kv1.3; 71% with 5HT3a; 107% in the assay with Kv2.1; 107% with TRPV1; 96% with Cav2.2. Also, the % activity at 0.2 µM with α4β2 nicotinic receptor turned out to be 89%. Moreover, the % activity at 20 µM worked out at 114% with GABA; 111% with TRPA1; 88% with NR2B; 92% with Kv1.2; 93% in the assay with Kir2.1; 71% in the assay with Kv1.3. The % activity at 20 µM in the assay with Kv1.1 amounted to 102%; with TRPV1 it was 84%; with α4β2 nicotinic receptor, 92%.

As to GSACQFWSCNSSCISRGYRQGYCWGIQYKYCQCQ (modifications not checked) [SEQ ID NO: 27], the % activity at 0.2 µM with hERG, Q12809 was 90%; with α4β2 nicotinic receptor, 90%. For the same molecule, the % activity at 20 µM with Kv1.3 is 100%.

GSGCFGYKCDYYKGCCSGYVCSPTWKWCVRPGPGR (modifications not checked) [SEQ ID NO: 9]: the % activity at 0.2 µM with TRPA1 turned out to be 131%; in the assay with Kv1.2 it was 120%.

Take GSQIDTNVKCSGSSKCVKICIDRYNTRGAKCINGRCTCYP (modifications not checked) [SEQ ID NO: 20]: the % activity at 0.2 µM in the assay with Cav2.1 came out at 100%; with Kir2.1, 89%; with Cav2.2 it was 110%; with α4β2 nicotinic receptor it was 113%. Also, the % activity at 20 µM with Kv1.2 is 74%; in the assay with hERG, Q12809 it was 87%; with Kv1.3, 7%.

Take GSSCAKPRENCNRMNILCCRGECVCPTFGDCFCYGD (modifications not checked) [SEQ ID NO: 4]: the % activity at 0.2 µM worked out at 135% with TRPA1 and 90% in the assay with Kv1.2. Moreover, the % activity at 20 µM amounted to 90% in the assay with NR2A; 45% with Kv1.2; 90% with Kir2.1; 80% with hERG, Q12809.

On to GSCIGEGVPCDENDPRCCFGLVCLKPTLHGIWYKSYYCYKK (modifications not checked) [SEQ ID NO: 23], for which the % activity at 0.2 µM is 126% with TRPA1, 117% with TRPV1 and 110% with Cav2.2. The results for the % activity at 20 µM in the assay with 5HT3a and in the assay with α4β2 nicotinic receptor were 101% and 79%, respectively.
